These compounds were tested on HIV-1. Settings: monocyte/macrophage assay with HIV-1 (p24).

Structure (SMILES) | TI
CCCCCc1cc(O)c2c(c1)OC(C)(C)C1CCC(C(=O)O)=CC21 (stereo not drawn) | 9.8
C=C(C)[C@@H]1CCC(C)=C[C@H]1c1c(O)cc(CCCCC)cc1O [Cannabidiol, reference compound] | 2.8
CCCCCc1cc(O)c2c(c1)OC(C)(C)c1ccc(C)cc1-2 [Cannabinol] | 1.7
Nc1ccn([C@H]2CC[C@@H](CO)O2)c(=O)n1 [DdC, reference compound] | >3,571
CCO [EtOH] | >1.67
CCCCCc1cc(O)cc(O)c1 [Olivitol] | 1.119

From patent US20070179135A1 (priority 2006, published 2007)
